Literature values in publication PMC2630844, “Characterizing the Anti-HIV Activity of Papuamide A” (Marine Drugs, 2008).

System: HIV induced T cell death
Details: HIV induced T cell death in vitro, cited from earlier work

Substance | selectivity index (SI) | selectivity index (SI) (SI as defined by paper: effective dose divided by the cytotoxic dose)
papuamide B | 21 | 
neamphamide A [reference compound] |  | 9.29
callipeltin A [reference compound] | 29 | 

Read-outs that look alike come from different tables or passages of the source.
